Measured values from several laboratories, pooled; numbers as filed in NIAID ChemDB.

Shared fields: whole-cell or culture tests; agent: Varicella zoster virus; read-out: EC50

Conditions beyond the fields shown may differ between rows.

{"smiles": "O=C(NCc1ccc(Cl)cc1)c1c[nH]c2ccc(C#CCO)cc2c1=O", "strain or isolate": "COH", "read by": "plaque count", "value": "0.2 µM"}
{"smiles": "Cc1c(Br)cc(Br)c2ncc(CSCc3ccc(Cl)c(Cl)c3)n12", "cells": "HEL", "strain or isolate": "07/1 (TK-)", "read by": "plaque count", "value": "2.8 µg/mL"}
{"smiles": "O=c1[nH]c(=O)n([C@@H]2O[C@H](CO)[C@@H](O)[C@@H]2O)cc1/C=C/Br", "strain or isolate": "Kawaguchi acyclovir-resistant mutant A7", "read by": "plaque count", "value": "0.000106 µg/mL"}
{"smiles": "Cc1cn(C(CF)CCCO)c(=O)[nH]c1=O", "cells": "HEL", "strain or isolate": "YS/R (TK-)", "read by": "cytopathic effect", "value": ">50 µg/mL"}
{"smiles": "CCCCc1ccc(-c2cc3cn(C4CC[C@@H](CO)O4)c(=O)nc3o2)cc1", "cells": "HEL", "strain or isolate": "YS (TK+)", "read by": "plaque count", "value": "3.3 µM"}
{"smiles": "CC1(C)[C@@H](CO)CC[C@@]1(C)Cn1nnc2c(N)ncnc21", "cells": "HEL", "strain or isolate": "YS/R (TK-)", "read by": "cytopathic effect", "value": ">50 µg/mL"}
{"smiles": "Nc1nc2c(ncn2CCC(CO)CO)c(=O)[nH]1", "cells": "HEL", "strain or isolate": "Clinical isolate VZV-24", "read by": "cytopathic effect", "value": "1.67 µM"}
{"smiles": "CC1(C)[C@@H](CO)CC[C@@]1(C)Cn1cnc2c(=O)[nH]cnc21", "cells": "HEL", "strain or isolate": "OKA", "read by": "cytopathic effect", "value": ">50 µg/mL"}
{"smiles": "Nc1nc(=S)n([C@@H]2O[C@H](CO)[C@@H](O)[C@@H]2O)cc1/C=C/Br", "cells": "MRC-5", "strain or isolate": "Kanno-Kohmura (TK-)", "read by": "plaque count", "value": ">213 µM"}
{"smiles": "CC1(C)[C@@H](CO)CC[C@@]1(C)Cn1cnc2c(N)ncnc21", "cells": "HEL", "strain or isolate": "YS", "read by": "cytopathic effect", "value": ">50 µg/mL"}
{"smiles": "CCCc1ccc(-c2cc3cn(C4CC[C@@H](CO)O4)c(=O)nc3o2)cc1", "cells": "HEL", "strain or isolate": "07/1 (TK-)", "read by": "plaque count", "value": ">50 µM"}
{"smiles": "Nc1ncnc2c1ncn2[C@@H]1C=C(CO)[C@@H](O)[C@H]1O", "cells": "HEL", "strain or isolate": "07/1 YS/R (TK-)", "read by": "cytopathic effect", "value": "9 µg/mL"}
{"smiles": "CC(O)c1cn([C@@H]2O[C@H](CO)[C@@H](O)[C@@H]2O)c(=S)[nH]c1=O", "cells": "MRC-5", "strain or isolate": "HOSEN (TK+)", "read by": "plaque count", "value": ">249.5 µM"}
{"smiles": "Cn1cc(C(=O)NCc2ccc(Cl)cc2)c(=O)c2cc(CN3CCOCC3)ccc21", "cells": "HFF", "strain or isolate": "MC varicella isolate", "read by": "plaque count", "value": "0.6 µM"}
{"smiles": "O=c1[nH]c(=O)n([C@H]2C[C@H](O)[C@@H](CO)O2)cc1I", "cells": "HEL", "strain or isolate": "YS-W1 H13", "read by": "plaque count", "value": "0.3 µg/mL"}
{"smiles": "Nc1ncnc2c1ncn2C[C@@H](CO)OCP(=O)(O)O", "cells": "HEL", "strain or isolate": "Oka PMEDAP-resistant", "read by": "cytopathic effect", "value": "0.013 µM"}
{"smiles": "Cc1c(Br)cc(Br)c2ncc(CSCCc3ccccc3)n12", "cells": "HEL", "strain or isolate": "YS/R (TK-)", "read by": "plaque count", "value": "2.6 µg/mL"}
{"smiles": "O=c1[nH]c(=O)n([C@H]2C[C@H](O)[C@@H](CO)O2)cc1/C=C/Br", "cells": "HEL", "strain or isolate": "07 (TK-)", "read by": "cytopathic effect", "value": ">150 µM"}
{"smiles": "Cc1c(Br)cc(Br)c2ncc(CSC(C)c3cccs3)n12", "cells": "HEL", "strain or isolate": "YS (TK+)", "read by": "plaque count", "value": ">2 µg/mL"}
{"smiles": "CCCCCCCc1ccc(-c2cc3cn(C4CC[C@@H](CO)O4)c(=O)nc3o2)cc1", "cells": "HEL", "strain or isolate": "OKA (TK+)", "read by": "plaque count", "value": "5 µM"}
{"smiles": "Cc1cn([C@@H]2O[C@H](CO)[C@@H](O)[C@@H]2O)c(=O)[nH]c1=O", "strain or isolate": "Kawaguchi acyclovir-resistant mutant A7", "read by": "plaque count", "value": "0.0119 µg/mL"}
{"smiles": "CCCCCCCCc1cc2cn([C@H]3C[C@H](O)[C@@H](CO)O3)c(=O)nc2o1", "strain or isolate": "OKA", "value": "0.008 µM"}
{"smiles": "O=C(O)P(=O)(O)O", "cells": "HEL", "strain or isolate": "Clinical isolate VZV-22", "read by": "cytopathic effect", "value": "76.9 µM"}
{"smiles": "Nc1ccn(CCCC(O)CF)c(=O)n1", "cells": "HEL", "strain or isolate": "07-01/TK-", "read by": "cytopathic effect", "value": ">50 µg/mL"}
{"smiles": "CCOC(=O)/C=C/C=C/[C@H]1O[C@@H](n2ccc(=O)[nH]c2=O)[C@H](O)[C@@H]1O", "cells": "HEL", "strain or isolate": "YS", "value": ">120 µM"}
{"smiles": "Nc1ccn(C(CF)CCCO)c(=O)n1", "cells": "HEL", "strain or isolate": "YS", "read by": "cytopathic effect", "value": ">50 µg/mL"}
{"smiles": "O=C(O)CP(=O)(O)O", "cells": "HEL", "strain or isolate": "Oka penciclovir-resistant/A", "read by": "cytopathic effect", "value": "236.3 µM"}
{"smiles": "O=c1nc2oc(-c3ccccc3)cc2cn1C1CC[C@@H](CO)O1", "cells": "HEL", "strain or isolate": "OKA (TK+)", "read by": "plaque count", "value": ">200 µM"}
{"smiles": "Nc1ccn(C[C@@H](CO)OCP(=O)(O)O)c(=O)n1", "cells": "HEL", "strain or isolate": "Oka PMEDAP-resistant", "read by": "cytopathic effect", "value": "0.26 µM"}
{"smiles": "O=C(O)CP(=O)(O)O", "cells": "HEL", "strain or isolate": "YS-V10 H12", "read by": "plaque count", "value": "7.1 µg/mL"}
{"smiles": "Cc1c(Br)cc(Br)c2ncc(CSCc3cccc(C(F)(F)F)c3)n12", "cells": "HEL", "strain or isolate": "YS/R (TK-)", "read by": "plaque count", "value": ">5 µg/mL"}
{"smiles": "CC1(C)[C@@H](CO)CC[C@@]1(C)Cn1ccc(=O)[nH]c1=O", "cells": "HEL", "strain or isolate": "07/1 (TK-)", "read by": "cytopathic effect", "value": ">50 µg/mL"}
{"smiles": "Cc1c(Br)cc(Br)c2ncc(CSCc3ccccc3)n12", "cells": "HEL", "strain or isolate": "07/1 (TK-)", "read by": "plaque count", "value": ">20 µg/mL"}
{"smiles": "CCc1cn([C@@H]2O[C@H](CO)[C@@H](O)[C@@H]2O)c(=S)[nH]c1=O", "cells": "MRC-5", "strain or isolate": "CAQU (TK+)", "read by": "plaque count", "value": ">264.9 µM"}
{"smiles": "Cc1c(Br)cc(Br)c2ncc(CSCc3ccc(Cl)cc3)n12", "cells": "HEL", "strain or isolate": "07/1 (TK-)", "read by": "plaque count", "value": "2.8 µg/mL"}
{"smiles": "C=Cc1cn([C@@H]2O[C@H](CO)[C@@H](O)[C@@H]2O)c(=S)[nH]c1=O", "cells": "MRC-5", "strain or isolate": "CAQU (TK+)", "read by": "plaque count", "value": ">266.3 µM"}
{"smiles": "COC(=O)[C@H](C)NP(=O)(OC[C@H]1O[C@@H](n2cc(/C=C/Br)c(=O)[nH]c2=O)C[C@@H]1O)Oc1ccc(Cl)cc1", "cells": "HEL", "strain or isolate": "YS", "read by": "cytopathic effect", "value": "0.13 µM"}

Repeating the first 5 entries:

O=C(NCc1ccc(Cl)cc1)c1c[nH]c2ccc(C#CCO)cc2c1=O ; strain or isolate: COH ; read by: plaque count ; value: 0.2 µM
Cc1c(Br)cc(Br)c2ncc(CSCc3ccc(Cl)c(Cl)c3)n12 ; cells: HEL ; strain or isolate: 07/1 (TK-) ; read by: plaque count ; value: 2.8 µg/mL
O=c1[nH]c(=O)n([C@@H]2O[C@H](CO)[C@@H](O)[C@@H]2O)cc1/C=C/Br ; strain or isolate: Kawaguchi acyclovir-resistant mutant A7 ; read by: plaque count ; value: 0.000106 µg/mL
Cc1cn(C(CF)CCCO)c(=O)[nH]c1=O ; cells: HEL ; strain or isolate: YS/R (TK-) ; read by: cytopathic effect ; value: >50 µg/mL
CCCCc1ccc(-c2cc3cn(C4CC[C@@H](CO)O4)c(=O)nc3o2)cc1 ; cells: HEL ; strain or isolate: YS (TK+) ; read by: plaque count ; value: 3.3 µM

ECn is the concentration giving n% inhibition of infection, replication or growth.